This note sets out measurements from patent US6969738B2, “Malic acid diester surfactants” (Air Products and Chemicals, Inc., priority 1999, dated 2005).

The data set deals with biomass seed from a Easton, Pa. Wastewater Treatment Plant, not acclimatized. Kind of data set: Carbonaceous Biological Demand test (CBOD5, CBOD28), percent biodegradation = CBOD/COD x 100. Particulars: for Percent Biodegradation at 5 days, average / Percent Biodegradation at 5 days, Trial 1 / Percent Biodegradation at 5 days, Trial 2 / Percent Biodegradation at 5 days, Trial 3: CBOD5, unacclimatized biomass; for Percent Biodegradation at 5 days, average: average of trials 1-3; for Percent Biodegradation at 28 days, average / Percent Biodegradation at 28 days, Trial 4 / Percent Biodegradation at 28 days, Trial 5 / Percent Biodegradation at 28 days, Trial 6: CBOD28, unacclimatized biomass; for Percent Biodegradation at 28 days, average: average of trials 4-6.

The structures appear in SMILES notation.

As for `CCCCCCOC(=O)CC(O)C(=O)OCCCCCC` (racemic) [Example 8, Dihexyl-DL-malate], the “Percent Biodegradation at 5 days, average” value was 51%; the “Percent Biodegradation at 5 days, Trial 1” value is listed as 61%; the “Percent Biodegradation at 5 days, Trial 2” value came out at 46%; the “Percent Biodegradation at 5 days, Trial 3” value amounted to 47%. For the same compound, the “Percent Biodegradation at 28 days, average” value amounted to 94%; the “Percent Biodegradation at 28 days, Trial 4” value is recorded as 88%; the “Percent Biodegradation at 28 days, Trial 5” value turned out to be 95%; the “Percent Biodegradation at 28 days, Trial 6” value was 100%.
Consider `CCC(C)COC(=O)CC(O)C(=O)OCC(C)CC` (racemic) [Example 7, Di(2-methylbutyl)-DL-malate], for which the “Percent Biodegradation at 5 days, average” value turned out to be 29%; the “Percent Biodegradation at 5 days, Trial 1” value is recorded as 26%; the “Percent Biodegradation at 5 days, Trial 2” value came out at 30%; the “Percent Biodegradation at 5 days, Trial 3” value worked out at 30%. For the same compound, the “Percent Biodegradation at 28 days, average” value came out at 86%; the “Percent Biodegradation at 28 days, Trial 4” value worked out at 88%; the “Percent Biodegradation at 28 days, Trial 5” value turned out to be 85%; the “Percent Biodegradation at 28 days, Trial 6” value is on record as 86%.
`CC(C)CCOC(=O)CC(O)C(=O)OCCC(C)C` (racemic) [Example 6, Diisoamyl-DL-malate]: the “Percent Biodegradation at 5 days, average” value is given as 35%; the “Percent Biodegradation at 5 days, Trial 1” value amounted to 31%; the “Percent Biodegradation at 5 days, Trial 2” value was found to be 37%; the “Percent Biodegradation at 5 days, Trial 3” value amounted to 39%. Moreover, the “Percent Biodegradation at 28 days, average” value worked out at 77%; the “Percent Biodegradation at 28 days, Trial 4” value worked out at 100%; the “Percent Biodegradation at 28 days, Trial 5” value amounted to 76%; the “Percent Biodegradation at 28 days, Trial 6” value is on record as 54%.
As to `CCC(C)OC(=O)CC(O)C(=O)OC(C)CC` (racemic) [Example 4, Di-sec-butyl-DL-malate], the “Percent Biodegradation at 5 days, average” value was 1%; the “Percent Biodegradation at 5 days, Trial 1” value was 0%; the “Percent Biodegradation at 5 days, Trial 2” value is 3%; the “Percent Biodegradation at 5 days, Trial 3” value came to 0%. Moreover, the “Percent Biodegradation at 28 days, average” value is recorded as 93%; the “Percent Biodegradation at 28 days, Trial 4” value was determined as 79%; the “Percent Biodegradation at 28 days, Trial 5” value came out at 100%; the “Percent Biodegradation at 28 days, Trial 6” value is on record as 100%.
Regarding `CCCCOC(=O)CC(O)C(=O)OCCCC` (racemic) [Example 2, Dibutyl-DL-malate], the “Percent Biodegradation at 5 days, average” value is reported as 35%; the “Percent Biodegradation at 5 days, Trial 1” value came out at 38%; the “Percent Biodegradation at 5 days, Trial 2” value came out at 35%; the “Percent Biodegradation at 5 days, Trial 3” value stood at 32%. The “Percent Biodegradation at 28 days, average” value is 100 100 100 100 100%; the “Percent Biodegradation at 28 days, Trial 4” value is reported as 100 100 100 100 100%; the “Percent Biodegradation at 28 days, Trial 5” value is 100 100 100 100 100%; the “Percent Biodegradation at 28 days, Trial 6” value was 100 100 100 100 100%.
In the case of `CCCCCOC(=O)CC(O)C(=O)OCCCCC` (racemic) [Example 5, Dipentyl-DL-malate], the “Percent Biodegradation at 5 days, average” value is 49%; the “Percent Biodegradation at 5 days, Trial 1” value is 53%; the “Percent Biodegradation at 5 days, Trial 2” value was 47%; the “Percent Biodegradation at 5 days, Trial 3” value was found to be 47%. The “Percent Biodegradation at 28 days, average” value is 87%; the “Percent Biodegradation at 28 days, Trial 4” value is 91%; the “Percent Biodegradation at 28 days, Trial 5” value amounted to 88%; the “Percent Biodegradation at 28 days, Trial 6” value is 83%.
Take `CC(C)COC(=O)CC(O)C(=O)OCC(C)C` (racemic) [Example 3, Diisobutyl-DL-malate]: the “Percent Biodegradation at 5 days, average” value is 14%; the “Percent Biodegradation at 5 days, Trial 1” value was 16%; the “Percent Biodegradation at 5 days, Trial 2” value stood at 13%; the “Percent Biodegradation at 5 days, Trial 3” value is 14%. For the same compound, the “Percent Biodegradation at 28 days, average” value is listed as 100 100 100 100%; the “Percent Biodegradation at 28 days, Trial 4” value is on record as 100 100 100 100%; the “Percent Biodegradation at 28 days, Trial 5” value was 100 100 100 100%; the “Percent Biodegradation at 28 days, Trial 6” value was 100 100 100 100%.
As to `O=C(CC(O)C(=O)OCc1ccccc1)OCc1ccccc1` (racemic) [Example 10, Dibenzyl-DL-malate], the “Percent Biodegradation at 5 days, average” value is given as 44 — — 44%; the “Percent Biodegradation at 5 days, Trial 1” value is listed as 44 — — 44%; the “Percent Biodegradation at 28 days, average” value is listed as 89%; the “Percent Biodegradation at 28 days, Trial 4” value is 79%. Further, the “Percent Biodegradation at 28 days, Trial 5” value stood at 91% and the “Percent Biodegradation at 28 days, Trial 6” value is on record as 96%.
Take `CC(C)OC(=O)C[C@H](O)C(=O)OC(C)C` [Example 1, Diisopropyl-(S)-(−)-malate]: the “Percent Biodegradation at 5 days, average” value is on record as 1%; the “Percent Biodegradation at 5 days, Trial 1” value amounted to 2%; the “Percent Biodegradation at 5 days, Trial 2” value worked out at 0%; the “Percent Biodegradation at 5 days, Trial 3” value amounted to 0%. For the same compound, the “Percent Biodegradation at 28 days, average” value is on record as 100 100 100 100%; the “Percent Biodegradation at 28 days, Trial 4” value is 100 100 100 100%; the “Percent Biodegradation at 28 days, Trial 5” value was 100 100 100 100%; the “Percent Biodegradation at 28 days, Trial 6” value is 100 100 100 100%.
For `CC(C)CC(C)OC(=O)CC(O)C(=O)OC(C)CC(C)C` (racemic) [Example 9, Di(4-methyl-2-pentyl)-DL-malate], the “Percent Biodegradation at 5 days, average” value came to 2%; the “Percent Biodegradation at 5 days, Trial 1” value came to 2%; the “Percent Biodegradation at 5 days, Trial 2” value came out at 2%; the “Percent Biodegradation at 5 days, Trial 3” value is given as 0%. The “Percent Biodegradation at 28 days, average” value worked out at 39%; the “Percent Biodegradation at 28 days, Trial 4” value amounted to 29%; the “Percent Biodegradation at 28 days, Trial 5” value was determined as 29%; the “Percent Biodegradation at 28 days, Trial 6” value came out at 59%.
